Pooled drug test results. Numbers come from NIAID ChemDB, via PubChem.

Common to all: tests in culture; agent: Mycobacterium tuberculosis

Percent inhibition refers to the dose given; in toxicity tests it is the harm to the cells.

SMILES,cells,changes,dose,method,setting,endpoint,strain or isolate,result
FC(F)(F)c1cc(NCCN2CCCCC2)c2cccc(C(F)(F)F)c2n1,,,6.25 µg/mL,,,inhibition,H37Rv,98%
OC(c1cc(-c2ccc(Cl)c(Cl)c2)nc2ccccc12)C1CCCCN1,,,,resazurin,,MIC bound,H37Rv,<6.25 µg/mL
OCCc1cn(CC(Oc2ccc(OC(F)(F)F)cc2)c2ccc(Cl)cc2Cl)nn1,,,,GFP / reporter gene,,MIC,H37Rv,>64 µg/mL
CCn1cc(C(=O)O)c(=O)c2cc(F)c(N3CCNCC3)nc21,,,,,,MIC50,64 strains,4 µg/mL
CO[C@H]1/C=C/O[C@@]2(C)Oc3c(C)c(O)c4c(O)c(c(/C=N/N5CCN(C)CC5)c(O)c4c3C2=O)NC(=O)/C(C)=C\C=C\[C@H](C)[C@H](O)[C@@H](C)[C@@H](O)[C@@H](C)[C@H](OC(C)=O)[C@@H]1C,,,,broth dilution,,MIC,H37Rv,≤0.1 µM
CN1C(=O)[C@]2(CO)NC(=O)[C@@]1(Cc1ccccc1)SS[C@@]1(CO)NC(=O)[C@](Cc3ccccc3)(NC1=O)SS2,,,,,,MIC,H37Ra,12.5 µg/mL
Cc1nc(-c2ccc(N=Cc3ccc(N(CCOS(C)(=O)=O)CCOS(C)(=O)=O)cc3Cl)cc2)c(C)s1.Cl.Cl,,,12.5 µg/mL,BACTEC,,inhibition,H37Rv,0%
Fc1ccc2oc(=S)n(-c3ccc(Cl)cc3)c(=S)c2c1,,,,,14 d,MIC,My 331/88,2 µM
CN(C)CCCN1c2ccccc2Sc2ccc(Cl)cc21,,,,,,MBC,Isolate A drug-susceptible,20 µg/mL
CNC(=O)OCCN(CCOC(=O)NC)C(=O)N1c2ccccc2Sc2ccccc21,,,,BACTEC,,MIC bound,H37Rv,>12.5 µg/mL
CCOC(=O)/C=C/c1ccc(OC)cc1,,,,resazurin,,MIC,BTB09-001,242 µM
C=C(NC(=O)c1csc(-c2nc3c(cc2O)-c2nc(cs2)C(=O)N[C@@H]([C@@H](C)O)C(=O)N/C(=C(\C)OC)c2nc(cs2)C(=O)N[C@@H]2c4nc(cs4)C(=O)N[C@@H](COC(=O)c4c5c6c(cccc6n4O)COC(=O)[C@@H](O[C@H]4C[C@](C)(O)[C@H](N(C)C)[C@H](C)O4)[C@H]2OC5)c2nc-3cs2)n1)C(N)=O,,,,broth dilution,,MIC,Clinical isolate 13923,≤25 µM
CC(=O)O[C@H]1C[C@@]2(C)[C@@H](C[C@@H](O)[C@H]3[C@@]4(C)CC[C@@H](O)[C@@H](C)[C@@H]4CC[C@@]32C)/C1=C(\CCC=C(C)C)C(=O)O,,,,,,MIC90,64 strains,16 µg/mL
Nc1cccc(-c2cn(CC(Oc3ccc(Cl)cc3)c3ccc(Cl)cc3Cl)nn2)c1,,,,GFP / reporter gene,,MIC,H37Rv,>256 µg/mL
O=C(NCc1ccc(N2CCN(Cc3ccccc3)CC2)cc1)c1ccc([N+](=O)[O-])o1,,,,,,MIC,UT18,0.012 µg/mL
CS[C@@]1(Cc2ccccc2)NC(=O)[C@@](Cc2ccccc2)(SC)N(C)C1=O,,,,,,MIC,H37Ra,100 µg/mL
FC(F)(F)c1cc(NCCCCNc2cc(C(F)(F)F)nc3c(C(F)(F)F)cccc23)c2cccc(C(F)(F)F)c2n1,,,6.25 µg/mL,,,inhibition,H37Rv,14%
O=[N+]([O-])c1cn2c(n1)OC[C@@H](OCc1ccc(OC(F)(F)F)cc1)C2,,,,,,MIC,CDC1551,0.05 µg/mL
Cc1ccc2oc(=O)n(-c3cccc(F)c3)c(=S)c2c1,,,,,14 d,MIC,My 331/88,4 µM
CO/C(C)=C1/NC(=O)[C@H]([C@@H](C)O)NC(=O)c2csc(n2)-c2cc(O)c(-c3nc(C(=O)NCCCN4CCOCC4)cs3)nc2-c2csc(n2)[C@@H]2COC(=O)c3c4c5c(cccc5n3O)COC(=O)[C@@H](O[C@H]3C[C@](C)(O)[C@H](N(C)C)[C@H](C)O3)[C@@H](OC4)[C@H](NC(=O)c3csc1n3)c1nc(cs1)C(=O)N2,,Isoniazid-resistant,,broth dilution,,MIC,Clinical isolate 9139,≤2.5 µM
CC1=NC(=O)CNN1C1=NNC2(C(=O)N1)c1ccccc1-c1ccccc12,,,12.5 µg/mL,BACTEC,,inhibition,H37Rv,0%
CCc1cc(C(N)=S)ccn1,,,,,,MIC,1620-6,1.25 µg/mL
N#Cc1c(Nc2cccc(Cl)c2)sc(C(=O)c2cc3cc(Cl)ccc3o2)c1N,,,12.5 µg/mL,BACTEC,,inhibition,H37Rv,-63%
CC1=C2C(=CO[C@H](C)[C@H]2C)C(=O)C(C(=O)O)=C1O,,,100 µg/mL,,,inhibition,M.AV,79%
O=c1oc2ccc(F)cc2c(=S)n1-c1ccc(F)cc1,,,,,14 d,MIC,My 331/88,1 µM
O=C1CN2Cc3cc(N4CCOCC4)ccc3N=C2N1,,,,resazurin,,MIC bound,H37Rv,>6.25 µg/mL
CC1CN(c2cc3c(cc2F)c(=O)c(C(=O)O)cn3-c2ccc(F)cc2F)CCN1,,,,,,MIC50,64 strains,1 µg/mL
CC1COc2c(N3CCN(C)CC3)c(F)cc3c(=O)c(C(=O)O)cn1c23,,,,,,MIC50,9 strains (MDR),0.5 µg/mL
CC(=O)Oc1c(OC(C)=O)c(-c2ccc(O)c(O)c2)c(O)c(O)c1-c1ccc(O)cc1,,,12.5 µg/mL,BACTEC,,inhibition,H37Rv,20%
CNn1cc(C(=O)O)c(=O)c2cc(F)c(N3CCN(C)CC3)cc21,,,,,,MIC50,64 strains,2 µg/mL
CO[C@H]1/C=C/O[C@@]2(C)Oc3c(C)c(O)c4c(O)c(c(/C=N/N5CCN(C6CCCC6)CC5)c(O)c4c3C2=O)NC(=O)/C(C)=C\C=C\[C@H](C)[C@H](O)[C@@H](C)[C@@H](O)[C@@H](C)[C@H](OC(C)=O)[C@@H]1C,,,,,,MIC,Atencio,0.03 µg/mL
COc1ccc(/C=N/NC(=O)c2cnc3[nH]c(=O)n(C)c(=O)c3c2)cc1,,,,resazurin,,MIC bound,H37Rv,>6.25 µg/mL
CC(=O)O[C@H]1C[C@@H]2CC3(CC[C@]2(C)C2C[C@H](OC(C)=O)[C@@]4(C)C(CC[C@@H]4C(C)CCC(=O)NC(C)C)C21)OOC1(CCC(c2ccccc2)CC1)OO3,,,,,,MIC,,>6.25 µg/mL
CC(=O)O[C@H]1CC[C@]2(C)[C@H]3CC[C@]4(C)[C@@H](C(C)/C=C/[C@H](C)C(C)C)CC[C@H]4[C@@]34C=C[C@]2(C1)O4,,,,,,MIC,H37Rv,8 µg/mL
COc1cc2ccc1Oc1cc(ccc1OC)CCC(=O)CCCC2,,,,broth dilution,,MIC,H37Rv,>200 µg/mL
CCN1C(=O)C2(CCC(=N)C(C#N)C2)c2ccccc21,,,,,,MIC,H37Rv,0.1 µg/mL
Cc1ccc(-n2c(=S)oc3ccc(C)cc3c2=S)cc1,,,,,21 d,MIC,My 331/88,1 µM
O=C(Cc1ccccc1)N/N=C(\c1nc2ccc([N+](=O)[O-])cc2[nH]c1=O)C(O)c1ccccc1Cl,,,,resazurin,,MIC bound,H37Rv,>6.25 µg/mL
C=C(NC(=O)c1csc(-c2nc3c(cc2O)-c2nc(cs2)C(=O)N[C@@H]([C@@H](C)O)C(=O)N/C(=C(\C)OC)c2nc(cs2)C(=O)N[C@@H]2c4nc(cs4)C(=O)N[C@@H](COC(=O)c4c5c6c(cccc6n4O)COC(=O)[C@@H](O[C@H]4C[C@]6(C)OCN(C)[C@@H]6[C@H](C)O4)[C@H]2OC5)c2nc-3cs2)n1)C(N)=O,,,,broth dilution,,MIC,Clinical Isolate 913,10–100 µM
COc1ccccc1/C=N/Nc1ccccn1,,,,BACTEC,,MIC bound,H37Rv,>12.5 µg/mL
CC1(C)S[C@@H]2[C@H](NC(=O)[C@H](N)c3ccc(O)cc3)C(=O)N2[C@H]1C(=O)O,,,,,,MIC50,24 strains (drug-susceptible),128 µg/mL
[O-][n+]1nc2ccccc2c2ccccc21,,,12.5 µg/mL,BACTEC,,inhibition,H37Rv,5%
COc1ccc2oc(=O)n(-c3ccc(Cl)c(Cl)c3)c(=S)c2c1,,,,,21 d,MIC,My 331/88,32 µM
COC(=O)[C@H]1[C@H](O)[C@H](C)[C@@H](O)[C@@H](C)/C=C(\C)C2=C3C(=C(C)C(=O)c4c(O)c(c(C)c(OC(C)=O)c43)NC(=O)/C(C)=C/C=C\[C@@H](C)C(O)[C@@H](C)[C@H]1O)OCO2,,,,,,MIC,ETA-R,1.6 µg/mL
CCSN(SCC)C(=S)c1c(C#N)cc([N+](=O)[O-])cc1[N+](=O)[O-],,,,,,MBC,,7.29 µg/mL
Fc1ccc(-n2c(=S)oc3ccc(Br)cc3c2=S)cc1,,,,,14 d,MIC,My 331/88,1 µM
NNC(=O)c1ccncc1,,Rifampicin- and isoniazid-resistant,,broth dilution,,MIC,Clinical isolate 15552,>10 µM
O=C(CN1CCN(c2ccccc2)CC1)n1cnc2ccc([N+](=O)[O-])cc21,,,6.25 µg/mL,resazurin,,inhibition,H37Rv,17%
CCN1C(=O)C(CCC(=O)O)(CCC(=O)O)c2ccccc21,,,,,,MIC,H37Rv,0.1 µg/mL
O=c1oc2ccc(F)cc2c(=S)n1-c1ccc(Cl)c(Cl)c1,,,,,14 d,MIC,My 331/88,0.5 µM
CCn1cc(C(=O)O)c(=O)c2cnc(N3CCCC3)nc21,,,,resazurin,,MIC bound,H37Rv,>6.25 µg/mL
FC(F)(F)c1cc(NCCCCCCCCCNc2cc(C(F)(F)F)nc3c(C(F)(F)F)cccc23)c2cccc(C(F)(F)F)c2n1,,,6.25 µg/mL,,,inhibition,H37Rv,89%
CC(=O)OC[C@@]12[C@H](CCC[C@]13CO3)C1C[C@@](C)(CCC3=CC(=O)OC3)[C@H](C)CC1C[C@@H]2O,,,,,,MIC,H37Rv,>128 µg/mL
COCOc1ccc2cc1Oc1cc(ccc1OC)CCCCC(=O)CC2,,,,broth dilution,,MIC,H37Rv,>200 µg/mL
C[C@H]1CCC2=C(CCCC2(C)C)[C@]1(C)CCC1=CC(=O)OC1O,,,12.5 µg/mL,,,inhibition,H37Rv,0%
FC(F)(F)c1cc(NCCN2CCOCC2)c2cccc(C(F)(F)F)c2n1,,,,,,MIC,H37Rv,>6.25 µg/mL
C=C(C)C(=O)O[C@H]1C/C(CO)=C\[C@H](O)C/C(C)=C\[C@@H]2OC(=O)C(=C)[C@H]21,,,,BACTEC,,MIC bound,H37Rv,>12.5 µg/mL
Cc1nc(N)c2ncn([C@@H]3O[C@H](CO)[C@@H](O)[C@H]3O)c2n1,,,,,,MIC,ATCC 35822 (isoniazid-resistant),3.13 µg/mL
CCCCCCCCCC(=O)OCCN1CCN(CCCN2c3ccccc3Sc3ccc(C(F)(F)F)cc32)CC1,VERO,,,BACTEC,,MIC,H37Rv,12.5 µg/mL
NNC(=O)c1ccncc1,,,,resazurin,,MIC,H37Rv,0.21 µM
CSCCNC(=O)CS(=O)(=O)c1ccc(N)cc1,,,12.5 µg/mL,BACTEC,,inhibition,H37Rv,4%
CO[C@H]1[C@@H](O)[C@H](n2ccc(=O)[nH]c2=O)O[C@@H]1[C@@H](O[C@H]1OC(C(=O)N[C@H]2CCC[C@@H](C)NC2=O)=C[C@H](O)[C@@H]1O)C(N)=O,,,,,,MIC,KATO,8 µg/mL
CC(=O)Oc1cc2c(cc1OC(C)=O)OCC(c1ccc(C)cc1)C2,,,12.5 µg/mL,BACTEC,,inhibition,H37Rv,-15%
COc1ccc2cc1Oc1cc(ccc1OC(C)C)CCC(=O)CCCC2,,,,broth dilution,,MIC,H37Rv,25 µg/mL
Cn1c(=O)c2nc(-c3ccccc3)nnc2n(C)c1=O,,,,BACTEC,,MIC,H37Rv,1.56 µg/mL
CN1C(=O)C2(CCC(=O)CC2)c2ccccc21,,,,,,MIC,H37Rv,0.05 µg/mL
COc1ccc2cc1Oc1cc(ccc1OCc1ccccc1)CCC(=O)CCCC2,,,,broth dilution,,MIC,H37Rv,>200 µg/mL
C1CN1P1(N2CC2)=NP(N2CC2)(N2CC2)=NP(N2CC2)(N2CC2)=N1,,,,BACTEC,,MIC,H37Rv,128 µg/mL
COc1ccc2cc1Oc1cc(ccc1OC)CCC(NCCN1CCOCC1)CCCC2,,,,broth dilution,,MIC,H37Rv,200 µg/mL
O=[N+]([O-])[O][Ga]([O][N+](=O)[O-])[O][N+](=O)[O-],,,,,,EC50,Erdman,<500 µM
FC(F)(F)c1cc(NCCCCCCCNc2cc(C(F)(F)F)nc3c(C(F)(F)F)cccc23)c2cccc(C(F)(F)F)c2n1,,,,,,MIC,H37Rv,>6.25 µg/mL
O=C(NCc1ccc(N2CCN(Cc3ccccc3)CC2)nc1)c1ccc([N+](=O)[O-])o1,,,,,,MIC,UT18,0.012 µg/mL

Repeating the final 8 entries:

| SMILES | cells | changes | dose | method | setting | endpoint | strain or isolate | result |
|---|---|---|---|---|---|---|---|---|
| Cn1c(=O)c2nc(-c3ccccc3)nnc2n(C)c1=O |  |  |  | BACTEC |  | MIC | H37Rv | 1.56 µg/mL |
| CN1C(=O)C2(CCC(=O)CC2)c2ccccc21 |  |  |  |  |  | MIC | H37Rv | 0.05 µg/mL |
| COc1ccc2cc1Oc1cc(ccc1OCc1ccccc1)CCC(=O)CCCC2 |  |  |  | broth dilution |  | MIC | H37Rv | >200 µg/mL |
| C1CN1P1(N2CC2)=NP(N2CC2)(N2CC2)=NP(N2CC2)(N2CC2)=N1 |  |  |  | BACTEC |  | MIC | H37Rv | 128 µg/mL |
| COc1ccc2cc1Oc1cc(ccc1OC)CCC(NCCN1CCOCC1)CCCC2 |  |  |  | broth dilution |  | MIC | H37Rv | 200 µg/mL |
| O=[N+]([O-])[O][Ga]([O][N+](=O)[O-])[O][N+](=O)[O-] |  |  |  |  |  | EC50 | Erdman | <500 µM |
| FC(F)(F)c1cc(NCCCCCCCNc2cc(C(F)(F)F)nc3c(C(F)(F)F)cccc23)c2cccc(C(F)(F)F)c2n1 |  |  |  |  |  | MIC | H37Rv | >6.25 µg/mL |
| O=C(NCc1ccc(N2CCN(Cc3ccccc3)CC2)nc1)c1ccc([N+](=O)[O-])o1 |  |  |  |  |  | MIC | UT18 | 0.012 µg/mL |

An empty or dashed field is not shown. Conditions beyond the fields shown may differ between rows. A number after MIC or MFC names an inhibition level or a share of isolates. MIC bound comes from a single tested concentration. ECn is the concentration giving n% inhibition of infection, replication or growth. a–b is a range or a potency band.